{
  "sequences": {"note": "Sequences of proteins named here, by UniProt entry; tags and fusion partners are left off.", "UniProt Q9HVF8, entry or part of it": "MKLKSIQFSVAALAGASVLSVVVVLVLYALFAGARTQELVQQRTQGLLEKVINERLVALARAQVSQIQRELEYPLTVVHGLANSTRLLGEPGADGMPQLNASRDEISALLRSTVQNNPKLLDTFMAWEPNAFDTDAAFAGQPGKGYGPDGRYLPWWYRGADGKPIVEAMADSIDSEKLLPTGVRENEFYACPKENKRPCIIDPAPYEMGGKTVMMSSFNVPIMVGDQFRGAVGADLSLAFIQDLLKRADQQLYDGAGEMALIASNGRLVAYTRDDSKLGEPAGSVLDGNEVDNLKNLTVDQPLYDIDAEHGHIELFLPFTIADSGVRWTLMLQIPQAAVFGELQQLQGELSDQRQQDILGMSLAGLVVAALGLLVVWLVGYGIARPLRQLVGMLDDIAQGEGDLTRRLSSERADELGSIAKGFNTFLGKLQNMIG"},
  "source": "paper PMC9040839",
  "about": "“Chemotaxis of the Human Pathogen Pseudomonas aeruginosa to the Neurotransmitter Acetylcholine” (mBio, 2022)",
  "target": "PctD-Tar hybrid (Pseudomonas aeruginosa, UniProt Q9HVF8)",
  "experiment": "cell-based",
  "data": [
    {"smiles": "CC(=O)OCC[N+](C)(C)C", "note": "[acetylcholine]", "values": [
      {"measurement": "EC50", "value": "70 ± 20", "unit": "nM"}
    ]}
  ]
}
